Results from patent US20060115815A1 (priority 2002, published 2006).

How the values were obtained:
[1] = tested on: mutant HIV-1 with M46I/I47V/I50V mutations in the protease gene (I50V #1); test: Resistance evaluation, I50V #1 fold change; conditions: I50V (#1) mutant
[2] = tested on: mutant HIV-1 with I84V/L90M mutations in the protease gene; test: Resistance evaluation, I84V/L90M fold change; format: cell-based

Structure (SMILES)	I50V (#1) fold change [1]	I84V/L90M fold change [2]
CCCCOC(=O)[C@H](C)NP(=O)(COc1ccc(S(=O)(=O)N(CC(C)C)C[C@@H](O)[C@H](Cc2ccccc2)NC(=O)O[C@H]2CO[C@H]3OCC[C@H]32)cc1)N[C@@H](C)C(=O)OCCCC	+ (>3 to ≦10)	+ (>3 to ≦10)
Cc1c(O)cccc1C(=O)N[C@@H](Cc1ccc(OCP(=O)(OCc2ccccc2)OCc2ccccc2)cc1)[C@H](O)CN(CC(C)C)S(=O)(=O)c1ccc(N)cc1	+ (>3 to ≦10)	
